Measured values reported in patent US20210388031A1 (New Jersey Institute of Technology, published 2021).

biological target: SARS-CoV-2 Spike protein on live virus (SARS-CoV-2, UniProt P0DTC2); experiment: cell-based or functional assay

Row | Binder | Plaque Reduction (10 µM, n-4)
1 | SALEEQLKTFLDKFMHELEDLLYQLAL [SBP2] | 88%
2 | ESLSLSLSLSLSLEGIEEQAKTFLDKFNHEAEDLFYQS [ESBP1] | 84%
3 | ESLSLSLSLSLSLEGSALEEGQLKTFLDKFMHELEDLLYQLAL [ESBP2] | 74%
